Reference: US20240336672A1

Target: SARS-CoV-2 delta plus variant RBD (SARS-CoV-2)
Assay: ELISA

ETE (antibody)
OD405nm: 0.4
